## DMS reactivity of the HIV-1 5' RNA in monomer and dimer

Sequence of the HIV-1 NL4-3 5' RNA, positions 1 to 437, as numbered in the source:
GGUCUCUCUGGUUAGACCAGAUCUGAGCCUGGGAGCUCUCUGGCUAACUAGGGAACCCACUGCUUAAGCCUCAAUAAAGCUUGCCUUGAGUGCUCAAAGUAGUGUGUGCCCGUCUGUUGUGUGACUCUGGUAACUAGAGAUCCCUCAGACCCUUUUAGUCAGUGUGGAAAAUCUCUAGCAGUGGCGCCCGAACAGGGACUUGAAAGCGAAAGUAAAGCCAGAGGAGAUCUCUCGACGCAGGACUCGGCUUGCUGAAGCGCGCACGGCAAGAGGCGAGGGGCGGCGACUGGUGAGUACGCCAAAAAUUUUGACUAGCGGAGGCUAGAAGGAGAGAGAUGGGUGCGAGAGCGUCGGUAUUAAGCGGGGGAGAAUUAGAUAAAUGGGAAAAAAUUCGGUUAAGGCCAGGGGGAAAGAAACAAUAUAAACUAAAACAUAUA

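Randomly mutated transcripts starting with one, two or three G (1G, 2G, 3G), capped or uncapped, were folded for 30 min at 37 °C. Monomer and dimer bands were cut from native gels after folding in high salt (300 mM KCl, 5 mM MgCl2) or low salt (40 mM KCl, 0.1 mM MgCl2). Each band was probed in the gel with DMS (170 mM, 15 min, 37 °C), with ethanol as control, and sequenced.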

Values are winsor-normalised DMS reactivities of A and C; higher means more reactive, usually unpaired.
One numbering serves 1G, 2G and 3G.
A position is written with its base.

position,3G capped high-salt dimer,3G capped high-salt monomer,3G capped low-salt dimer,3G capped low-salt monomer
C258,0.21,0.33,0.24,0.26
C260,0.31,0.45,0.36,0.34
C262,0.21,0.37,0.24,0.32
A263,0.83,0.21,0.78,0.18
C264,0.20,0.45,0.21,0.48
C267,0.04,0.14,0.05,0.11
A268,0.14,0.26,0.14,0.20
A269,0.21,0.48,0.21,0.37
A271,0.49,0.49,0.46,0.44
C274,0.25,0.71,0.26,0.85
A276,0.36,1.09,0.38,1.15
C281,0.40,0.37,0.37,0.38
C284,0.16,0.22,0.15,0.20
A286,0.60,0.52,0.58,0.48
C287,0.46,0.33,0.45,0.30
A293,0.84,0.68,0.80,0.71
A296,0.57,0.58,0.56,0.58
C297,0.14,0.14,0.13,0.18
C299,0.09,0.14,0.06,0.05
C300,0.07,0.11,0.07,0.02
A301,0.27,0.25,0.25,0.23
A302,1.18,1.24,1.14,1.22
A303,0.07,0.07,0.07,0.06
A304,0.14,0.15,0.14,0.11
A305,0.68,0.73,0.68,0.74
A311,1.24,1.21,1.20,1.10
C312,0.08,0.12,0.08,0.11
A314,0.03,0.03,0.03,0.02
C316,0.05,0.10,0.05,0.12
A319,0.87,0.83,0.84,0.80
C322,0.03,0.02,0.03,0.02
A324,0.09,0.17,0.07,0.10
A326,0.91,0.92,0.87,0.86
A327,1.05,1.01,1.04,1.00
A330,0.80,0.96,0.79,0.96
A332,0.49,0.64,0.49,0.63
A334,0.36,0.50,0.34,0.46
A336,0.64,0.63,0.56,0.70
C343,0.34,0.70,0.30,0.56
A345,1.27,1.27,1.20,1.22
A347,0.21,0.21,0.17,0.16
C349,0.27,0.28,0.23,0.26
C352,0.40,0.37,0.39,0.37
A356,0.95,0.84,0.99,0.94
A359,0.52,0.55,0.47,0.44
A360,0.57,0.54,0.48,0.44
C362,0.41,0.53,0.36,0.48
A368,0.85,0.96,0.85,0.99
A370,0.53,0.56,0.51,0.52
A371,0.94,0.97,0.94,0.98
A374,0.48,0.48,0.46,0.41
A376,0.75,0.76,0.71,0.71
A378,0.21,0.24,0.21,0.22
A379,0.60,0.60,0.57,0.59
A380,0.82,0.85,0.79,0.84
A385,0.53,0.55,0.51,0.55
A386,1.32,1.39,1.28,1.41
A387,0.23,0.24,0.22,0.22

Excerpt, the final 2 entries:

* A386 = 3G capped high-salt dimer 1.32; 3G capped high-salt monomer 1.39; 3G capped low-salt dimer 1.28; 3G capped low-salt monomer 1.41
* A387 = 3G capped high-salt dimer 0.23; 3G capped high-salt monomer 0.24; 3G capped low-salt dimer 0.22; 3G capped low-salt monomer 0.22

The measurements come from Ye et al. 2022 (doi:10.1038/s41594-022-00746-2).